Anti-infective test results gathered from many reports (values: NIAID ChemDB through PubChem).

ICn is the concentration giving n% inhibition.

{"SMILES": "Cc1cc(O)c(C=O)c(O)c1", "read-out": "MIC", "kind": "culture", "agent": "Mycobacterium tuberculosis", "strain": "H37Rv", "result": ">100 µg/mL"}
{"SMILES": "Fc1ccc(N2CCCCC2)c(NC(=S)c2ccncc2)c1", "read-out": "inhibition", "read by": "kinase activity", "kind": "host protein", "protein": "PAK2", "tested at": "10 µM", "result": "13%"}
{"SMILES": "CCOC(=O)Nc1nc2cc(C(=O)OC)n(C)c2s1", "read-out": "MIC bound", "read by": "resazurin", "kind": "culture", "agent": "Mycobacterium tuberculosis", "strain": "H37Rv", "result": ">6.25 µg/mL"}
{"SMILES": "COc1cccc(N2CCN(c3cncc(-c4ccc(CO)cc4)n3)CC2)c1", "read-out": "inhibition", "kind": "target", "agent": "Cytomegalovirus", "protein": "UL97 kinase", "tested at": "1 µM", "result": "<50%"}
{"SMILES": "CCN(CC)c1ccc(NC(C)=O)cc1", "read-out": "MIC", "kind": "culture", "agent": "Mycobacterium tuberculosis", "strain": "H37Rv", "result": ">100 µg/mL"}
{"SMILES": "O=C(N/N=C/c1ccccc1O)c1cccc2ccccc12", "read-out": "MIC", "read by": "BACTEC", "kind": "culture", "agent": "Mycobacterium tuberculosis", "strain": "H37Rv", "result": "≥12.5 µg/mL"}
{"SMILES": "Br.CCN(CC)CCCOc1ccccc1", "read-out": "MIC", "kind": "culture", "agent": "Mycobacterium tuberculosis", "strain": "H37Rv", "result": "125 µg/mL"}
{"SMILES": "COc1ccc2c(c1)[n+](=O)c(C(=O)C/C(=N/NC(=O)c1ccccc1O)C(=O)Nc1ccc(Cl)c(C(F)(F)F)c1)c(C)n2[O-]", "read-out": "MIC bound", "read by": "BACTEC", "kind": "culture", "agent": "Mycobacterium tuberculosis", "strain": "H37Rv", "result": ">12.5 µg/mL"}
{"SMILES": "NC(=O)NCCCCCC(=O)O", "read-out": "MIC", "kind": "culture", "agent": "Mycobacterium tuberculosis", "strain": "H37Rv", "result": ">100 µg/mL"}
{"SMILES": "COC(=O)[C@@H]1Cc2c([nH]c3ccccc23)C(C)(C)N1", "read-out": "MIC bound", "read by": "resazurin", "kind": "culture", "agent": "Mycobacterium tuberculosis", "strain": "H37Rv", "result": ">6.25 µg/mL"}
{"SMILES": "OC1(C#CC2(O)CCC3CCCCC3C2)CCCCC1", "read-out": "MIC", "kind": "culture", "agent": "Mycobacterium tuberculosis", "strain": "H37Rv", "result": ">100 µg/mL"}
{"SMILES": "COc1ccc(N2CCN(c3cncc(-c4cccc(OC)c4)n3)CC2)cc1", "read-out": "IC50", "kind": "target", "agent": "Cytomegalovirus", "protein": "UL97 kinase", "result": "<100 µM"}
{"SMILES": "Oc1cc(-[n+]2ccccc2)c(O)cc1-[n+]1ccccc1.[I-]", "read-out": "MIC", "kind": "culture", "agent": "Mycobacterium tuberculosis", "strain": "H37Rv", "result": ">100 µg/mL"}
{"SMILES": "Cc1nc(C)c(N2CCN(c3ccncc3)CC2)nc1-c1cc2ccccc2s1", "read-out": "IC50", "kind": "target", "agent": "Cytomegalovirus", "protein": "UL97 kinase", "result": "<100 µM"}
{"SMILES": "O=C(C(=O)c1ccccc1)c1ccccc1", "read-out": "MIC", "kind": "culture", "agent": "Mycobacterium tuberculosis", "strain": "H37Rv", "result": ">100 µg/mL"}
{"SMILES": "CSc1nc([N+](=O)[O-])c2cnccn12", "read-out": "inhibition", "read by": "resazurin", "kind": "culture", "agent": "Mycobacterium tuberculosis", "tested at": "6.25 µg/mL", "strain": "H37Rv", "result": "8%"}
{"SMILES": "COc1cccc(N2CCN(c3cncc(-c4csc5ccccc45)n3)CC2)c1", "read-out": "IC50", "kind": "target", "agent": "Cytomegalovirus", "protein": "UL97 kinase", "result": "<10 µM"}
{"SMILES": "COc1ccc2c(c1)CCC1C2=CCS1(=O)=O", "read-out": "MIC bound", "read by": "resazurin", "kind": "culture", "agent": "Mycobacterium tuberculosis", "strain": "H37Rv", "result": ">6.25 µg/mL"}
{"SMILES": "c1cc(N2CCN(c3cncc(-c4ccsc4)n3)CC2)ccn1", "read-out": "inhibition", "kind": "target", "agent": "Cytomegalovirus", "protein": "UL97 kinase", "tested at": "1 µM", "result": "<50%"}
{"SMILES": "CN1CCN(C(=O)N2c3ccccc3Sc3ccccc32)CC1", "read-out": "inhibition", "read by": "BACTEC", "kind": "culture", "agent": "Mycobacterium tuberculosis", "tested at": "12.5 µg/mL", "strain": "H37Rv", "result": "8%"}
{"SMILES": "Cc1ccccc1-c1cncc(N2CCN(c3cccc(Cl)c3)CC2)n1", "read-out": "inhibition", "kind": "target", "agent": "Cytomegalovirus", "protein": "UL97 kinase", "tested at": "10 µM", "result": ">15%"}

For reference, 3 entries again:

SMILES	read-out	read by	kind	agent	protein	tested at	strain	result
COc1cccc(N2CCN(c3cncc(-c4ccc(CO)cc4)n3)CC2)c1	inhibition	-	target	Cytomegalovirus	UL97 kinase	1 µM	-	<50%
c1cc(N2CCN(c3cncc(-c4ccsc4)n3)CC2)ccn1	inhibition	-	target	Cytomegalovirus	UL97 kinase	1 µM	-	<50%
CCOC(=O)Nc1nc2cc(C(=O)OC)n(C)c2s1	MIC bound	resazurin	culture	Mycobacterium tuberculosis	-	-	H37Rv	>6.25 µg/mL

MIC bound: limit read from a one-dose screen. Percent inhibition refers to the dose given; in toxicity tests it is the harm to the cells. Neighbouring rows are from separate reports. An empty or dashed field is not shown.